In publication PMC11982464, “Structural insight into the catalytic mechanism of the bifunctional enzyme L-fucokinase/GDP-fucose pyrophosphorylase” (The Journal of Biological Chemistry, 2025) one finds Km, kcat and kcat/Km data, which are given here for 8 substances.

In series [1] the test system is C[C@@H]1O[C@H](OP(=O)(O)O)[C@@H](O)[C@H](O)[C@@H]1O. The experiment in a line: purified protein. To be noted: GDP-fucose pyrophosphorylase site, co-substrate GTP, 50 mM Hepes pH 7.5, 2 mM MgCl2.
For series [2], the system named is Nc1ncnc2c1ncn2[C@@H]1O[C@H](COP(=O)(O)OP(=O)(O)OP(=O)(O)O)[C@@H](O)[C@H]1O. The experiment in a line: purified protein. To be noted: fucokinase site, Hill fit, co-substrate L-fucose, 50 mM Hepes pH 7.5, 2 mM MnCl2.

By Km is commonly meant the concentration of substrate that gives half-maximal velocity. As usually defined, the kcat is the maximal rate divided by the concentration of active sites. In general, kcat/Km refers to the second-order rate constant that governs catalysis at low substrate concentration.

For the substance “FKP-FL (L-fucokinase/GDP-β-L-fucose pyrophosphorylase, full length) (Bacteroides fragilis; H73A)”, in series [1], the Km is on record as 0.050 ± 0.007 mM, the turnover number (kcat) came to 0.32 s⁻¹ and the kcat/Km was determined as 6400 M⁻¹ s⁻¹.

Consider “FKP-FL (L-fucokinase/GDP-β-L-fucose pyrophosphorylase, full length) (Bacteroides fragilis; H272A)”, for which, in series [1], the Km is listed as 0.53 ± 0.082 mM, the kcat turned out to be 0.034 s⁻¹ and the kcat/Km was 64 M⁻¹ s⁻¹.

As to “FKP-FL (L-fucokinase/GDP-β-L-fucose pyrophosphorylase, full length) (Bacteroides fragilis; W599A)”, in series [2], the Km is 0.92 ± 0.2 mM, the kcat is 0.28 s⁻¹ and the kcat/Km was 300 M⁻¹ s⁻¹.

Turning to “FKP-FL (L-fucokinase/GDP-β-L-fucose pyrophosphorylase, full length) (Bacteroides fragilis; H168A)”, in series [1], the Km was 0.72 ± 0.13 mM, the kcat is 0.027 s⁻¹ and the kcat/Km is 38 M⁻¹ s⁻¹.

Turning to “FKP-FL (L-fucokinase/GDP-β-L-fucose pyrophosphorylase, full length) (Bacteroides fragilis; K187A)”, in series [1], the Km worked out at 1.2 ± 0.2 mM, the kcat amounted to 0.15 s⁻¹ and the kcat/Km amounted to 130 M⁻¹ s⁻¹.

For the substance “FKP-FL (L-fucokinase/GDP-β-L-fucose pyrophosphorylase, full length) (Bacteroides fragilis; R80A)”, in series [1], the Km is on record as 0.20 ± 0.019 mM, the kcat turned out to be 0.012 s⁻¹ and the kcat/Km worked out at 62 M⁻¹ s⁻¹.

Take “FKP-FL (L-fucokinase/GDP-β-L-fucose pyrophosphorylase, full length) (Bacteroides fragilis; D601A)”: in series [2], the Km is recorded as 3.4 ± 0.5 mM, the kcat was 0.26 s⁻¹ and the kcat/Km worked out at 80 M⁻¹ s⁻¹.

As to “FKP-FL (L-fucokinase/GDP-β-L-fucose pyrophosphorylase, full length) (Bacteroides fragilis; D31A)”, the Km in series [1] is given as 0.081 ± 0.009 mM.
